Compound potency records, mixed from different reports. Data source: NIAID ChemDB in PubChem.

Common to all: growth or infection tests; organism: HIV-1; cells: MT-4; read-out: EC50

Blank or dashed fields: not listed here. Neighbouring rows are from separate reports. ECn: concentration that inhibits the pathogen or its effect by n%.

SMILES,strain,mutations,method,result
NC(=O)c1ccc(NC(=O)COc2cccnc2-c2cccc3ccccc23)cc1,IIIB,,MTT / absorbance,>29.4 µM
CC1c2nc(C(=O)NCc3ccc(F)cc3)c(O)c(=O)n2CCN1C(=O)C(=O)N(C)C,,,p24,<50 µM
CC1(C)Oc2ccc3cc(CC#N)c(=O)oc3c2[C@@H](OC(=O)C23CCC(C)(C(=O)O2)C3(C)C)[C@H]1OC(=O)C12CCC(C)(C(=O)O1)C2(C)C,IIIB,,cytopathic effect / XTT,5.45 µM
CN(C)C(=O)C(=O)N(C)C1CN(C2CCCC2)CCn2c1nc(C(=O)NCc1ccc(F)cc1)c(O)c2=O,,,p24,<1 µM
O=C1/C(=N\n2c(-c3ccncc3)n[nH]c2=S)c2ccccc2N1CN1CCCCC1,IIIB,,cytopathic effect / MTT,>10 µM
CC(C)(C)OC(=O)NC(Cc1ccc(OCc2ccccc2)cc1)C(=O)N1CCC(=O)C1,,,syncytia / trypan blue,10 µM
CC(C)C[C@H](NC(=O)[C@H](Cc1ccccc1)NC(=O)C[C@H](O)[C@H](Cc1ccccc1)NC(=O)OC(C)(C)C)C(=O)N[C@@H](Cc1ccccc1)C(=O)Nc1ccn([C@H]2CS[C@@H](CO)O2)c(=O)n1,,,syncytia,1 µM
CC(C)(C)OC(=O)NC(Cc1ccc(OCc2ccccc2)cc1)C(=O)N1CCC(O)C1,,,syncytia / trypan blue,>100 µM
Cc1cc(C#N)cc(C)c1Oc1nc(Nc2ccc(C#N)cc2)nc(N)c1Br,IIIB,E138K,MTT,0.0067 µM
NOCc1ccc(Cl)cc1Cl,IIIB,,cytopathic effect / MTT,11.5 µg/mL
COc1c2c(cc3c1[C@H](c1ccc(O)c(Oc4ccccc4)c1)[C@H]1C(=O)OC[C@@H]1C3)OCO2,IIIB,,cytopathic effect / MTT,5.22 µM
NOCc1ccccc1,IIIB,,cytopathic effect / MTT,>82.3 µg/mL
CCCCCCCCOC(=O)N[C@@H](Cc1ccccc1)C(=O)N1CCC(=O)C1,,,syncytia / trypan blue,>50 µM
Cc1cccc(Nc2ccccc2C(=O)Nc2ccc(C(=O)/C=C/c3ccc(Cl)cc3)cc2)c1C,IIIB,,MTT / absorbance,>2.17 µM
NOCc1c(Cl)cccc1Cl,IIIB,,cytopathic effect / MTT,1.67 µg/mL
Cc1cccc(C)c1OCC(=O)N[C@@H](Cc1ccccc1)[C@H](O)CN(CC(C)C)S(=O)(=O)c1ccc2nc(N)oc2c1,LAI WT,,cytopathic effect / MTT,0.0158 µM
Cc1ccc(/C=C/C(=O)c2ccc(NC(=O)c3ccccc3Nc3cccc(C)c3C)cc2)cc1,IIIB,,MTT / absorbance,>76.9 µM
Cc1cn([C@H]2C=C[C@@H](CO)O2)c(=O)[nH]c1=O,XM-AZT-resistant,RT-M41L D67N K70R T215Y K219Q,p24,<0.7 µM
NOCc1ccccc1Cl,IIIB,,cytopathic effect / MTT,13.8 µg/mL
Cc1cn([C@H]2C[C@H](N=[N+]=[N-])[C@@H](CO)O2)c(=O)[nH]c1=O,IIIB,Y181C,MTT,0.012 µM
CC(C)CC(NC(=O)OC(C)(C)C)C(=O)N1CCC(O)C1,,,syncytia / trypan blue,>100 µM
Cc1ccc(-c2c(C)c3c(c(C)c2[C@H](OC(C)(C)C)C(=O)O)N(S(C)(=O)=O)Cc2c(F)cccc2-3)cc1,,,MTT,0.001 µM
C=C(C)C(=O)NC(=O)N[C@@H]1OC(CO[Si](C)(C)C(C)(C)C)C2(OS(=O)(=O)C=C2N)C1O[Si](C)(C)C(C)(C)C,,,,0.6 µM
COC(=O)[C@H](Cc1ccccc1)NC(=O)[C@H](CCC(=O)Nc1ccn([C@H]2CS[C@@H](CO)O2)c(=O)n1)NC(=O)C[C@H](O)C(CC(C)C)NC(=O)[C@@H](NC(=O)[C@H](Cc1c[nH]c2ccccc12)NC(C)=O)C(C)C,,,syncytia,10 µM
O=C1/C(=N\n2c(-c3ccncc3)n[nH]c2=S)c2cc(Br)ccc2N1CN1CCCCC1,IIIB,,cytopathic effect / MTT,>11 µM
O=c1[nH]c(=O)n([C@H]2C[C@H](O)[C@@H](CO)O2)cc1CO,,,cytopathic effect / MTT,0.75 µg/mL
Nc1ccn(C23C=C[C@@H](CO)[C@@H]2C3)c(=O)n1,IIIB,,MTT,>61.8 µg/mL
CC(=O)N[C@H]1OC(CO[Si](C)(C)C(C)(C)C)C2(OS(=O)(=O)C=C2N)C1O[Si](C)(C)C(C)(C)C,,,,>7.7 µM
Cc1cn([C@H]2C[C@H](N=[N+]=[N-])[C@@H](CO)O2)c(=O)[nH]c1=O,IIIB,,cytopathic effect / XTT,0.0055 µM
COc1cc(Cc2cnc(/N=C3\C(=O)N(CN4CCNCC4)c4ccc(C)cc43)nc2N)cc(OC)c1OC,,,cytopathic effect,>94.2 µM
CC(=O)c1ccc(NC(=O)COc2cccnc2-c2cccc3ccccc23)cc1,IIIB,,MTT / absorbance,>8.23 µM
Cc1ccc(-c2c(C)c3c(c(C)c2[C@H](OC(C)(C)C)C(=O)O)N(S(C)(=O)=O)Cc2cc(F)ccc2-3)cc1,,T174I,MTT,0.36 µM
Nc1nc(=O)n([C@H]2C=C[C@@H](CO)O2)cc1F,XM-AZT-resistant,RT-M41L D67N K70R T215Y K219Q,p24,<1.6 µM
O=C(NCc1ccc(F)cc1)c1nc2n(c(=O)c1O)CCN(Cc1cocn1)C21CC1,,,p24,<1 µM
COc1cc(Cc2cnc(/N=C3\C(=O)N(CN4CCN(c5ccccn5)CC4)c4ccc(C)cc43)nc2N)cc(OC)c1OC,,,cytopathic effect,>119.6 µM
Cc1c(CC#N)c(=O)oc2c3c(ccc12)OC(C)(C)[C@H](OC(=O)C12CCC(C)(C(=O)O1)C2(C)C)[C@@H]3OC(=O)C12CCC(C)(C(=O)O1)C2(C)C,IIIB,,cytopathic effect / XTT,2.96 µM
O=C(CSc1snnc1-c1ccccc1)Nc1ccccc1F,IIIB,,MTT,>361.8 µM
O=C1CCN(C(=O)[C@H](Cc2ccccc2)NC(=O)N(c2ccccc2)c2ccccc2)C1,,,syncytia / trypan blue,>100 µM
Cc1cn([C@H]2C[C@H](N=[N+]=[N-])[C@@H](CO)O2)c(=O)[nH]c1=O,RES056,,MTT / absorbance,0.011 µM
Cc1cc(C)c(-n2c(SCC(=O)Nc3ccccc3Cl)nc3cccnc32)c(C)c1,ROD,,MTT,>26 µM
COc1ccc([C@H]2c3c(cc4c(c3OC)OCO4)C[C@H]3CSC[C@@H]32)cc1OCc1ccccc1,IIIB,,,5.06 µM
CC(C)CC(NC(=O)[C@@H](NC(=O)[C@H](Cc1c[nH]c2ccccc12)NC(=O)CCCCC(=O)Nc1ccn([C@H]2CS[C@@H](CO)O2)c(=O)n1)C(C)C)[C@@H](O)CC(=O)NC(Cc1ccccc1)c1ccccc1,,,syncytia,10 µM
Cc1cccc(Nc2ccccc2C(=O)Nc2ccc(-c3cc(-c4ccc(N(C)C)cc4)nc(=S)[nH]3)cc2)c1C,IIIB,,MTT / absorbance,>7.02 µM
CC(C)CN(C[C@@H](O)[C@H](Cc1ccccc1)NC(=O)O[C@H]1CCOC1)S(=O)(=O)c1ccc2nc(N)oc2c1,LAI WT,,cytopathic effect / MTT,0.0076 µM
O=C1/C(=N\n2c(-c3ccncc3)n[nH]c2=S)c2ccccc2N1CN1CCOCC1,IIIB,,cytopathic effect / MTT,>14 µM
CN(C)CCN1CCn2c(nc(C(=O)NCc3ccc(F)cc3)c(O)c2=O)C1(C)C,,,p24,<1 µM
COc1cc2c(c3oc(=O)c(CC#N)c(C)c13)[C@@H](OC(=O)C13CCC(C)(C(=O)O1)C3(C)C)[C@@H](OC(=O)C13CCC(C)(C(=O)O1)C3(C)C)C(C)(C)O2,IIIB,,cytopathic effect / XTT,0.11 µM
COc1cc([C@H]2c3c(cc(OC)c(OC)c3OC)C[C@H]3CSC[C@@H]32)cc(OC)c1OC,IIIB,,cytopathic effect / MTT,0.96 µM
COc1cc(Cc2cnc(/N=C3\C(=O)N(CN4CCN(c5ccc([N+](=O)[O-])cc5)CC4)c4ccc(C)cc43)nc2N)cc(OC)c1OC,,,cytopathic effect,>47.96 µM
COc1cc([C@H]2c3c(cc4c(c3OC)OCO4)C[C@H]3COC(=O)[C@@H]32)cc(C)c1OC,IIIB,,cytopathic effect / MTT,25.9 µM
CNc1nc2ccc(S(=O)(=O)N(CC(C)C)C[C@@H](O)[C@H](Cc3ccccc3)NC(=O)O[C@H]3CO[C@H]4OCC[C@H]43)cc2o1,LAI WT,,cytopathic effect / MTT,0.0027 µM
CC(C)[C@H](NC(=O)OCc1ccccn1)C(=O)N[C@@H](Cc1ccccc1)[C@@H](O)C[C@H](Cc1ccccc1)NC(=O)OCc1cccnc1,NL4-3,PR-M46I V82T,p24,<1.5 µM
COc1cc2c(c3oc(=O)c(C)c(C)c13)[C@@H](OC(=O)C13CCC(C)(C(=O)O1)C3(C)C)[C@@H](OC(=O)C13CCC(C)(C(=O)O1)C3(C)C)C(C)(C)O2,IIIB,,cytopathic effect / XTT,2.94 µM
COc1cc(Cc2cnc(/N=C3\C(=O)N(CN4CCN(c5ccc6c(c5F)c(=O)c(C(=O)O)cn6C5CC5)CC4)c4ccc(C)cc43)nc2N)cc(OC)c1OC,,,cytopathic effect,11.6 µM
NC(=O)c1ccc(NC(=O)COc2cccnc2-c2ccc(C(F)(F)F)cc2)cc1,IIIB,,MTT / absorbance,>69.5 µM
COc1ccc([C@H]2c3c(cc4c(c3OC)OCO4)C[C@@H](C)[C@@H]2C)cc1O,IIIB,,cytopathic effect / MTT,76.1 µM
COC(=O)c1ccc(NC(=O)COc2cccnc2-c2cccc3ccccc23)c(Br)c1,IIIB,,MTT / absorbance,≥9.85 µM
CNc1nc2ccc(S(=O)(=O)N(CC(C)C)C[C@@H](O)[C@H](Cc3ccccc3)NC(=O)O[C@H]3CCOC3)cc2o1,LAI WT,,cytopathic effect / MTT,0.0078 µM
O=C1/C(=N\n2c(-c3ccncc3)n[nH]c2=S)c2cc(Cl)ccc2N1CN1CCCCC1,IIIB,,cytopathic effect / MTT,>11 µM
CC(C)(C)OC(=O)N1CCC(=O)C1,,,syncytia / trypan blue,>100 µM
CN1CCn2c(nc(C(=O)NCc3ccc(F)cc3)c(O)c2=O)C(N(C)S(=O)(=O)N(C)C)C1,,,p24,<1 µM
Cc1c(C(=O)N[C@@H](Cc2ccccc2)[C@H](O)CN(CC(C)C)S(=O)(=O)c2ccc3nc(N)oc3c2)ccc(N)c1O,LAI WT,,cytopathic effect / MTT,0.3548 µM

Repeating the final 5 entries:

SMILES	strain	mutations	method	result
CNc1nc2ccc(S(=O)(=O)N(CC(C)C)C[C@@H](O)[C@H](Cc3ccccc3)NC(=O)O[C@H]3CCOC3)cc2o1	LAI WT		cytopathic effect / MTT	0.0078 µM
O=C1/C(=N\n2c(-c3ccncc3)n[nH]c2=S)c2cc(Cl)ccc2N1CN1CCCCC1	IIIB		cytopathic effect / MTT	>11 µM
CC(C)(C)OC(=O)N1CCC(=O)C1			syncytia / trypan blue	>100 µM
CN1CCn2c(nc(C(=O)NCc3ccc(F)cc3)c(O)c2=O)C(N(C)S(=O)(=O)N(C)C)C1			p24	<1 µM
Cc1c(C(=O)N[C@@H](Cc2ccccc2)[C@H](O)CN(CC(C)C)S(=O)(=O)c2ccc3nc(N)oc3c2)ccc(N)c1O	LAI WT		cytopathic effect / MTT	0.3548 µM